Data on four compounds can be found in patent US11098090B2, “Mycobacteria tuberculosis chaperonin 60.1 peptides and uses thereof” (Revolo Biotherapeutics Limited, priority 2017, dated 2021).

Data set [1] can be described thus: Plasma stability at 37° C., rat plasma. It counts as in vitro ADME. To be noted: for Plasma half life Rat: Table 7, same conditions as Example 3. On the procedure: (§1) Plasma Stability in Mouse, Rat and Human Plasma at 37° C.
(§2) Plasma: mouse (C57 Black 6 Male), rat (Sprague Dawley) and human containing heparin as an anti-coagulant.
(§3) Plasma samples in duplicate were incubated with peptide at 3 μM in a 600 μl volume at 37° C. with shaking. 50 μl aliquots were withdrawn after 2, 5, 30, 60 and 120 mins and quenched into 150 μl of ice-cold methanol containing the internal standard (tolbutamide). Samples were stored at −20° C. for 2 hours to allow protein precipitation. Samples were then centrifuged at 2500×g and the resulting supernatants transferred to a 96 well plate for LC-MS/MS analysis. Thalf was calculated in all matrices for each peptide.

Data set [2] can be described thus: Plasma stability, overall statements for mouse, rat and human plasma. It counts as in vitro ADME. On the procedure:
as §1, §2, §3

Data set [3] in a line: Plasma stability at 37° C., mouse plasma. It counts as in vitro ADME. On the procedure:
as §1, §2, §3

In data set [4] the test system is LPS induced lung neutrophil influx. Description: LPS mouse model of lung inflammation (BAL neutrophil count). It counts as in vivo. The note with it: 50 pg/mouse, i.v.
Data set [5] can be described thus: Plasma stability at 37° C., human plasma. It counts as in vitro ADME. How it is done:
as §1, §2, §3

[6] abbreviates: Table 3, 37° C., peptide 3 μM, read-out: Plasma Half Life (Th) Rat.
Setting [7] is: Table 3, 37° C., peptide 3 μM, read-out: Plasma Half Life (Th) Mouse.
[8] abbreviates: Table 3, 37° C., peptide 3 μM, read-out: Plasma Half Life (Th) Man.
The mark [9] stands for this setting: Table 7, same conditions as Example 3.

A word on the half-life: it is the time in which the quantity being followed falls by half.

Molecules are shown by their SMILES. Entries after “also recorded” stand apart in the source; their conditions may differ.

For `CC(C)C[C@H](NC(=O)CNC(=O)[C@@H](N)Cc1c[nH]cn1)C(=O)N[C@@H](CC(N)=O)C(=O)N[C@H](C(=O)N[C@@H](CC(N)=O)C(=O)N[C@H](C(=O)N[C@@H](CC(C)C)C(=O)N[C@@H](CO)C(=O)N[C@@H](Cc1ccc(O)cc1)C(=O)NCC(=O)N[C@@H](CC(=O)O)C(=O)NCCC(N)=O)[C@@H](C)O)C(C)C` [SEQ ID NO: 21, HGLNVNTLSYGD-bAla-NH2], the half-life in data set [1] (setting [6]) was 1.25 h; in data set [3] (setting [7]), 1.78 h; in data set [5] (setting [8]), 2.52 h. The “plasma stability / half-life (Th) compared with parent peptide SEQ ID NO: 17” value in data set [2] is “improved the plasma stability; also recorded: superior Th”. For the same compound, the “anti-inflammatory activity / efficacy in the LPS mouse lung inflammation model” value (“anti-inflammatory activity / efficacy” below) in data set [4] is “loose efficacy”.
As to `CC(C)C[C@H](NC(=O)CNC(=O)[C@H](Cc1c[nH]cn1)NC(=O)CCN)C(=O)N[C@@H](CC(N)=O)C(=O)N[C@H](C(=O)N[C@@H](CC(N)=O)C(=O)N[C@H](C(=O)N[C@@H](CC(C)C)C(=O)N[C@@H](CO)C(=O)N[C@@H](Cc1ccc(O)cc1)C(=O)NCC(=O)N[C@@H](CC(=O)O)C(N)=O)[C@@H](C)O)C(C)C` [SEQ ID NO: 18, bAla-HGLNVNTLSYGD-NH2], the half-life in data set [1] (setting [6]) is above 6 h; in data set [3] (setting [7]) it was 0.617 h; in data set [5] (setting [8]), 2.85 h. Besides, the “Plasma half life Rat” value in data set [1] was above 6 h. The “plasma stability / half-life (Th) compared with parent peptide SEQ ID NO: 17” value in data set [2] is listed as “improved the plasma stability; also recorded: significant improvement in plasma half-life”. Moreover, the “anti-inflammatory activity / efficacy” value in data set [4] is recorded as “retains anti-inflammatory activity”.
For `CC(C)C[C@H](NC(=O)CNC(=O)[C@H](Cc1c[nH]cn1)NC(=O)COCCOCCN)C(=O)N[C@@H](CC(N)=O)C(=O)N[C@H](C(=O)N[C@@H](CC(N)=O)C(=O)N[C@H](C(=O)N[C@@H](CC(C)C)C(=O)N[C@@H](CO)C(=O)N[C@@H](Cc1ccc(O)cc1)C(=O)NCC(=O)N[C@@H](CC(=O)O)C(N)=O)[C@@H](C)O)C(C)C` [SEQ ID NO: 24, O2Oc-HGLNVNTLSYGD-NH2], the half-life was above 6 h in data set [1] (Table 7, same conditions as Example 3, read-out: Plasma half life Rat); 0.85 h in data set [3] (Table 7, same conditions as Example 3, read-out: Plasma half life Mouse); 4.32 h in data set [5] (Table 7, same conditions as Example 3, read-out: Plasma half life Man).
As to `CC(C)C[C@H](NC(=O)CNC(=O)[C@H](Cc1c[nH]cn1)NC(=O)CCN)C(=O)N[C@@H](CC(N)=O)C(=O)N[C@H](C(=O)N[C@@H](CC(N)=O)C(=O)N[C@H](C(=O)N[C@@H](CC(C)C)C(=O)N[C@@H](CO)C(=O)N[C@@H](Cc1ccc(O)cc1)C(=O)NCC(=O)N[C@@H](CC(=O)O)C(=O)NCCC(N)=O)[C@@H](C)O)C(C)C` [SEQ ID NO: 22, bAla-HGLNVNTLSYGD-bAla-NH2], the half-life in data set [1] (setting [6]), in data set [3] (setting [7]) and in data set [5] (setting [8]) was above 6 h in each case. Besides, the “Plasma half life Rat” value in data set [1] is above 6 h. Further, the “plasma stability / half-life (Th) compared with parent peptide SEQ ID NO: 17” value in data set [2] is listed as “improved the plasma stability; also recorded: superior Th; also recorded: improved the stability even further”. For the same compound, the “Plasma half life Mouse” value in data set [3] (setting [9]) was above 6 h. Also, the “anti-inflammatory activity / efficacy” value in data set [4] is given as “loose efficacy; also recorded: loss of biological activity”. Further, the “Plasma half life Man” value in data set [5] (setting [9]) is above 6 h.
